Molecules are shown by their SMILES.

For series [1], the system named is Genotype 1a replicon, NS5A Q30H.
The test system of series [2] is Genotype 1a replicon, NS5A Y93H.
In series [3] the test system is Genotype 1a replicon, NS5A L31M.
Series [4] concerns Genotype 1a replicon, NS5A Q30R.
Series [5] has as its system Genotype 1a replicon, NS5A Q30E.
Series [6] has as its system GT2b NS5B S282T mutant chimeric replicon. The class given is cell-based, HCV.
Series [7] has as its system GT1b NS5B S282T mutant replicon. Type of series: cell-based, HCV.
The test system of series [8] is GT3a NS5B S282T mutant chimeric replicon. The class given is cell-based, HCV.
Series [9] deals with panel of NS5A mutant replicons. As to the kind of experiment: Transient replicon assay, panel of NS5A mutant replicons. Type of series: cell-based, HCV. The note with it: seven NS5A mutants, genotype 1a. From the text: NS5A mutant replicons were created by synthesizing a sequence encoding the first 149 amino acids of NS5A containing the desired mutation flanked by a 5′ and 3′ BsrGI and EcoRI site, respectively (Genscript, Piscataway, N.J.). Synthesized fragments were then cloned by standard molecular biology techniques into a 1a Rluc replicon plasmid modified to enable cloning into unique BsrGI and EcoRI restriction sites. Mutations were confirmed by DNA sequencing.
RNA was transfected into Huh-lunet cells using the method of Lohmann et al. (Lohmann et al., Science 1999; 285 (5424):110-3) Briefly, cells were trypsinized and washed twice with PBS. A suspension of 4×10^6 cells in 400 μL of PBS were mixed with 5 μg of RNA and subjected to electroporation using settings of 960 μF and 270 V. Cells were transferred into 40 mL of pre-warmed culture medium and then seeded into 96-well or 384-well plates. Compounds were 3-fold serially diluted in 100% DMSO and added to cells to achieve a final DMSO concentration of 0.5%. Cells were treated for three days after which culture media were removed, cells were lysed, and Renilla luciferase activity was quantified using commercially available reagents (Promega) and a Victor or Envision instrument (Perkin Elmer, Waltham, Mass.).
Resistance fold changes were calculated as the ratio of mutant to wild-type replicon EC50. […]

The subject of series [10] is GT2a NS5B S282T mutant replicon. The class given is cell-based, HCV.
In series [11] the test system is Genotype 1a replicon, NS5A M28T.
Series [12] relates to GT4a NS5B S282T mutant chimeric replicon. Type of series: cell-based, HCV.

Consider `NC(=O)c1ncn([C@@H]2O[C@H](CO)[C@@H](O)[C@H]2O)n1` [Ribavirin, 1-β-D-ribofuranosyl-1H-1,2,4-Triazole-3-carboxamide, reference compound], for which the “Fold Shift in EC50 (DRM EC50/1a-H77 EC50)” value is on record as 0.7 in [1]; 1.0 in series [2]; 0.5 in series [3]; 0.8 in [4]; 0.8 in [5]; 0.4 in [11]. In addition, the Fold change in series [6] turned out to be 0.2; in series [7], 0.2; in series [8] it was 0.2; in series [10] it was 0.1; in series [12], 0.1. Further, the “increase (shift) in EC50 for NS5A mutants” value in [9] is “no significant shift”.

The values are drawn from patent US10456414B2, “Methods for treating HCV” (priority 2011, dated 2019).
